Values from PubChem BioAssay AID1259414 (Drosophila RNAi Screening Center, 2018)

- Screen: 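Genome-wide screen for host control of endosymbiont load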 (primary screen)
- System: Drosophila JW18 cells infected with Wolbachia
- Knock-down reagent: long dsRNA against Drosophila genes, 0.25 µg dsRNA per well of a 384-well plate
- Time to read-out: 5 days
- Treatment: cells persistently infected with Wolbachia before knock-down; no added drug
- Detection: 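Imaged fluorescence in situ signal for Wolbachia 23S rRNA per DAPI-counted host cell, given as a robust z-score within each plate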
- Reading the numbers: Wolbachia per cell robust z: higher = more Wolbachia per host cell than the plate typical
- Call rule: 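Hit when robust z is 1.5 or more, or -1.5 or less, in at least two of three replicates; excludes dsRNAs with several or no targets, genes not expressed in JW18 and well A1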
The deposit covers about 24,000 reagents; below is an unselected part of those that have a named target and a result. In the full data, about 1,210 (5%) are marked active. 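Inactive calls also include excluded dsRNAs with several or no targets, genes unexpressed in JW18, and well A1, regardless of score.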 A plus sign joins genes that one reagent is predicted to hit.

Against Chrac-14 + mus201 [DRSC03575] the deposit lists Wolbachia per cell robust z, rep 1 = 0.643; Wolbachia per cell robust z, rep 2 = -0.167; Wolbachia per cell robust z, rep 3 = -7.36; inactive.
Against CG18132 [DRSC00518], the values are Wolbachia per cell robust z, rep 1 = 1.3; Wolbachia per cell robust z, rep 2 = -0.683; Wolbachia per cell robust z, rep 3 = -0.84; inactive.
For inaC [DRSC07632], the values are Wolbachia per cell robust z, rep 1 = 0.724; Wolbachia per cell robust z, rep 2 = -0.499; Wolbachia per cell robust z, rep 3 = 0.309; inactive.
inaC [DRSC40843] showed Wolbachia per cell robust z, rep 1 = -0.228; Wolbachia per cell robust z, rep 2 = 0.617; Wolbachia per cell robust z, rep 3 = 0.636; inactive.
After knock-down of CG5860 [DRSC15896], the screen gave Wolbachia per cell robust z, rep 1 = 0.367; Wolbachia per cell robust z, rep 2 = 0.719; Wolbachia per cell robust z, rep 3 = -0.424; inactive.
mu2 [DRSC08726] scored Wolbachia per cell robust z, rep 1 = 0.0641; Wolbachia per cell robust z, rep 2 = 1.67; Wolbachia per cell robust z, rep 3 = 0.466; inactive.
With knock-down of mu2 [DRSC21534], the screen gave Wolbachia per cell robust z, rep 1 = -0.457; Wolbachia per cell robust z, rep 2 = -1.06; Wolbachia per cell robust z, rep 3 = -1.39; inactive.
For CG13737 [DRSC10064], the values are Wolbachia per cell robust z, rep 1 = 0.881; Wolbachia per cell robust z, rep 2 = -1.38; Wolbachia per cell robust z, rep 3 = -1.41; inactive.
For BTBD9 [DRSC18148], the values are Wolbachia per cell robust z, rep 1 = 0.342; Wolbachia per cell robust z, rep 2 = -0.63; Wolbachia per cell robust z, rep 3 = -1.62; inactive.
Silencing of BTBD9 [DRSC22371] came out at: Wolbachia per cell robust z, rep 1 = -0.863; Wolbachia per cell robust z, rep 2 = 0.596; Wolbachia per cell robust z, rep 3 = 0.437; inactive.
CG43335 [DRSC15764] showed Wolbachia per cell robust z, rep 1 = -0.855; Wolbachia per cell robust z, rep 2 = 0.845; Wolbachia per cell robust z, rep 3 = -0.294; inactive.
CG43335 [DRSC22671] showed Wolbachia per cell robust z, rep 1 = -0.578; Wolbachia per cell robust z, rep 2 = 0.435; Wolbachia per cell robust z, rep 3 = -0.057; inactive.
ea [DRSC16939] gave Wolbachia per cell robust z, rep 1 = 0.901; Wolbachia per cell robust z, rep 2 = -0.076; Wolbachia per cell robust z, rep 3 = -0.0322; inactive.
With knock-down of ea [DRSC25595], the record shows Wolbachia per cell robust z, rep 1 = -1.66; Wolbachia per cell robust z, rep 2 = -2; Wolbachia per cell robust z, rep 3 = -0.487; inactive.
With knock-down of CG33144 [DRSC07024], the record shows Wolbachia per cell robust z, rep 1 = 1.3; Wolbachia per cell robust z, rep 2 = 1.5; Wolbachia per cell robust z, rep 3 = 0.392; inactive.
CG33144 [DRSC25033] scored Wolbachia per cell robust z, rep 1 = -0.595; Wolbachia per cell robust z, rep 2 = 0.233; Wolbachia per cell robust z, rep 3 = 0.542; inactive.

Targets listed so far whose gene name begins with E or e (2):
ea [DRSC16939] → Wolbachia per cell robust z, rep 1 = 0.901; Wolbachia per cell robust z, rep 2 = -0.076; Wolbachia per cell robust z, rep 3 = -0.0322; Call = inactive
ea [DRSC25595] → Wolbachia per cell robust z, rep 1 = -1.66; Wolbachia per cell robust z, rep 2 = -2; Wolbachia per cell robust z, rep 3 = -0.487; Call = inactive
